The numbers were not newly measured in US7456274B2, “Inhibition of metallo-β-lactamase” (priority 2003, dated 2008), which cites them from elsewhere.

The data set has as its system class B β-lactamases. Conditions: Felici and Amicosante, 1995, Matagne et al.; cited from earlier work.

Consider 6-β-iodopenicillanic acid, for which the “inhibition of class B β-lactamases” value is listed as “do not inhibit”. For penicillanic acid sulfone, the “inhibition of class B β-lactamases” value is “do not inhibit”.
